# Results reported in paper PMC8237303 (Heliyon, 2021).
# By UniProt entry, the sequences of proteins in these tests, tags left out.
# UniProt Q02294, whole entry: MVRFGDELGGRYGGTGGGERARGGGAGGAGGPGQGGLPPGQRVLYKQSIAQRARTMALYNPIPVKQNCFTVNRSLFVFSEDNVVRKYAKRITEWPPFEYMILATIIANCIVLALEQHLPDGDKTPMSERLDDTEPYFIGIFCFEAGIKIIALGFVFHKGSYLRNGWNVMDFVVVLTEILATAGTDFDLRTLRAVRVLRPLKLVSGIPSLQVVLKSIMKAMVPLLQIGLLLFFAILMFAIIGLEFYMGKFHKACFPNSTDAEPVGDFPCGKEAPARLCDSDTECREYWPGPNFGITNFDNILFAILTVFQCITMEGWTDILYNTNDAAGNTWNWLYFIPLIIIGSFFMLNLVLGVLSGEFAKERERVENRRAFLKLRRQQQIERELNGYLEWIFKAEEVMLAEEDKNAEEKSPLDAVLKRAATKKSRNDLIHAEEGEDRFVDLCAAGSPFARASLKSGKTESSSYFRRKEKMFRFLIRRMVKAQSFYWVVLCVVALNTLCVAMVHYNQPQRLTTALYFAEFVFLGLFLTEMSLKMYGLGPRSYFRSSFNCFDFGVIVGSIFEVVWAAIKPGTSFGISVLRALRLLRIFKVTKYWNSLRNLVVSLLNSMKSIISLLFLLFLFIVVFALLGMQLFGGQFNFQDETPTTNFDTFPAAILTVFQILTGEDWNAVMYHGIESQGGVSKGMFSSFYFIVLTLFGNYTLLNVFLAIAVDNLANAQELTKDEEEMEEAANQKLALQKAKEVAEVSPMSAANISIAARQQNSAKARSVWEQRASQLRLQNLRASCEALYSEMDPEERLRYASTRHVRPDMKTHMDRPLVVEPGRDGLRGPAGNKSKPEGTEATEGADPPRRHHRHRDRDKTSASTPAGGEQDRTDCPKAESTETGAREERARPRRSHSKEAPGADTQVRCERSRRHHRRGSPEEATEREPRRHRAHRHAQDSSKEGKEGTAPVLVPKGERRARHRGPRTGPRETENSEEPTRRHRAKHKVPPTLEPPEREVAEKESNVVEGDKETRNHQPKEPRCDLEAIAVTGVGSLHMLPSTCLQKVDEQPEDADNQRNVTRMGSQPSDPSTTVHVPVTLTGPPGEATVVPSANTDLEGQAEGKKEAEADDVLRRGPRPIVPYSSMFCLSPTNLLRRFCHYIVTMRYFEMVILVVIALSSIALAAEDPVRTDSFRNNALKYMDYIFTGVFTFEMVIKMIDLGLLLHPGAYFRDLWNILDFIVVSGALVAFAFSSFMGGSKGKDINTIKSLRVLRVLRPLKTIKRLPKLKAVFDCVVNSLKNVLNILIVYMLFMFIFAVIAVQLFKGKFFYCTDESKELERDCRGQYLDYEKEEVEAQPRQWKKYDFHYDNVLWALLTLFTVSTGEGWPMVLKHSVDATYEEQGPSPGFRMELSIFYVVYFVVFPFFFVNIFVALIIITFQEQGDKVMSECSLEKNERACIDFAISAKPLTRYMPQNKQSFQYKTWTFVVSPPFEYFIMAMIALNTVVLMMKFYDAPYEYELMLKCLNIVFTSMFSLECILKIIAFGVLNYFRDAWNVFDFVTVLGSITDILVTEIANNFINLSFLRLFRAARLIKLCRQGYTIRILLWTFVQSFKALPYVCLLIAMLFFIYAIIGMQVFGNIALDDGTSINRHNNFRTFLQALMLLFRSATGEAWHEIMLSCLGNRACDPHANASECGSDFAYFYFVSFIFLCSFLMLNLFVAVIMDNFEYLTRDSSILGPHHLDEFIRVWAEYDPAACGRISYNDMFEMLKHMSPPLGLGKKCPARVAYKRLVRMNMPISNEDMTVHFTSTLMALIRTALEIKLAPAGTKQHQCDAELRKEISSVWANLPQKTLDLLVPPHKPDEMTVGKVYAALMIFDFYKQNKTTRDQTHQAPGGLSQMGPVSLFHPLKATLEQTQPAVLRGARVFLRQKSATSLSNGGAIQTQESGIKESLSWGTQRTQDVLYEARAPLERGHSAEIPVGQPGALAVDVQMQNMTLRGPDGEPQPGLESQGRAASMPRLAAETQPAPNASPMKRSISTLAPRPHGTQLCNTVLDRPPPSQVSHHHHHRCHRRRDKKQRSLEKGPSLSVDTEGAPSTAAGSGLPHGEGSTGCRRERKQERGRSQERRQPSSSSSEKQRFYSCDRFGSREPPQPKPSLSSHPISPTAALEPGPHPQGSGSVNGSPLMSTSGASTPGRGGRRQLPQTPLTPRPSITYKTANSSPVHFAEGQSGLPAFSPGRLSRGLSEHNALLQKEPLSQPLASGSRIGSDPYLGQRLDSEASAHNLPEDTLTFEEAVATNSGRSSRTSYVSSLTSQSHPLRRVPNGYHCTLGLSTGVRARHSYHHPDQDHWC
# Molecular target: Ca Channel (Type N) (Rattus norvegicus, UniProt Q02294)
# Assay type: binding
substance,measurement,value
ω-Conotoxin GVIA,Inhibition by a positive substance (%),100%
